Pooled drug test results. Numbers come from NIAID ChemDB, via PubChem.

Shared fields: host cell toxicity; cell line: C8166; read-out: CC50

An empty or dashed field is not shown.

structure,read by,result
O=C(CC1(O)C(=O)Nc2ccc(Br)cc21)c1ccccc1Cl,MTT,122 µM
CC1CNC(=O)c2ccccc2SSc2ccccc2C(=O)N1,-,>0.05 µg/mL
Cc1cn([C@H]2C[C@H](N=[N+]=[N-])[C@@H](CO)O2)c(=O)[nH]c1=O,MTT / absorbance,>100 µM
COc1ccccc1C(=O)CC1(O)C(=O)Nc2ccc(Br)cc21,MTT,>400 µM
COc1cc(-c2oc3cc(O)cc(O)c3c(=O)c2O[C@@H]2O[C@H](CO[C@@H]3O[C@@H](C)[C@H](O)[C@@H](O)[C@H]3O)[C@@H](O)[C@H](O)[C@H]2O)ccc1OC1O[C@H](CO)[C@@H](O)[C@H](O)[C@H]1O,-,>100 µg/mL
O=C(CC1(O)C(=O)Nc2ccc(Cl)cc21)c1cccc(Cl)c1,MTT,>400 µM
CNC1=CC(=O)C(C[C@]2(C)C(C)CCC3(C)C(C)=CCCC32)=CC1=O,-,16.2 µM
O=[N+]([O-])c1ccc2oc3ccccc3c2c1,-,>200 µg/mL
CN(N)c1ccn([C@H]2C[C@H](N=[N+]=[N-])[C@@H](CO)O2)c(=O)n1,-,500 µM
Cc1ccccc1OC1=C(C=O)CC[C@@H]2[C@H]3CCCN4CCC[C@@H](CN12)[C@@H]34,MTT,56.87 µg/mL
O=[N+]([O-])c1ccc(-n2ccc3cc([N+](=O)[O-])ccc32)cc1,MTT,5.4 µg/mL
CC(C)(C)OC(=O)[C@@H]1CCCN1C[C@@H](O)[C@H](Cc1ccccc1)NC(=O)[C@H](CC(N)=O)NC(=O)c1ccc2ccccc2n1,-,>100 µM
O=C(O[C@@H]1Cc2c(O)cc(O)cc2O[C@@H]1c1ccc(O)c(O)c1)c1cc(O)c(O)c(O)c1,-,>100 µg/mL
CC(C)(C)c1ccc(OC2=C(C=O)CC[C@@H]3[C@H]4CCCN5CCC[C@@H](CN23)[C@@H]45)cc1,MTT,>200 µg/mL
CC(C)(C)OC(=O)[C@@H]1CCCN1C[C@@H](O)[C@H](Cc1ccccc1)NC(=O)[C@H](CC(N)=O)NC(=O)OCc1ccccc1,-,>100 µM
Cc1cn(-c2ccccc2[N+](=O)[O-])c2ccccc12,MTT,14.41 µg/mL
N#Cc1ccc2oc3cc(F)ccc3c2c1,-,150 µg/mL
CCNC1=CC(=O)C=C(C[C@]2(C)C(C)CCC3(C)C(C)=CCCC32)C1=O,-,2.5 µM
O=[N+]([O-])c1ccc2c(ccn2-c2ccccc2[N+](=O)[O-])c1,MTT,99.61 µg/mL
CC(C)(C)NC(=O)[C@@H]1CCCN1C[C@@H](O)[C@H](Cc1ccccc1)NC(=O)[C@H](CC(N)=O)NC(=O)OCc1ccccc1,-,>100 µM
COC(=O)[C@H](C)NP(=O)(OC[C@@H]1CC[C@H](n2cnc3c(N)ncnc32)O1)Oc1ccccc1,-,15 µM
N#Cc1ccccc1-n1ccc2ccccc21,MTT,>200 µg/mL
O=C(CC1(O)C(=O)Nc2ccc(Cl)cc21)c1ccccc1Cl,MTT,>400 µM
Cc1cn([C@H]2C[C@H](N=[N+]=[N-])[C@@H](CO)O2)c(=O)nc1NO,-,500 µM
N#Cc1ccc2oc3ccccc3c2c1,-,>200 µg/mL
COc1cc(-c2oc3cc(O[C@@H]4O[C@H](CO)[C@@H](O)[C@H](O)[C@H]4O)cc(O)c3c(=O)c2O[C@@H]2O[C@H](CO[C@@H]3O[C@@H](C)[C@H](O)[C@@H](O)[C@H]3O)[C@@H](O)[C@H](O)[C@H]2O)ccc1O,-,100 µg/mL
CC1=CCC[C@H]2[C@](C)(CC3=CC(=O)C=CC3=O)[C@@H](C)CC[C@]12C,-,12.9 µM
C=C(C)C(O)Cc1cc(C(C)=O)ccc1O,-,50 µg/mL
O=CC1=C(Oc2cccc3ccccc23)N2C[C@@H]3CCCN4CCC[C@@H]([C@H]34)[C@H]2CC1,MTT,176 µg/mL
O=C(CC1(O)C(=O)Nc2ccc(Cl)cc21)c1ccc(Cl)c(Cl)c1,MTT,119 µM
O=[N+]([O-])c1cccc2c1oc1ccccc12,-,>200 µg/mL
CC1=C[C@H]([C@H](O)[C@H](C)[C@@H]2C[C@H]3O[C@]34[C@H]3CC[C@@H]5C(C)(C)O[C@H]6CC(=O)O[C@]65C[C@]3(O)CC[C@@]24C)OC1=O,-,>200 µg/mL
CC1=CCCC2C1(C)CCC(C)[C@@]2(C)CC1=CC(=O)C(NC(Cc2ccccc2)C(=O)O)=CC1=O,-,8 µM
O=C1C[C@@H](c2ccc(O)cc2)Oc2cc(O)cc(O)c21,-,10 µg/mL
CC1=CCCC2C1(C)CCC(C)[C@@]2(C)CC1=CC(=O)C(NC(CO)C(=O)O)=CC1=O,-,23.5 µM
C=C(C)C1Cc2cc(C(C)=O)c(O)cc2O1,-,40 µg/mL
O=c1c(O)c(-c2ccc(O)cc2)oc2cc(O)cc(O)c12,-,10 µg/mL
C[C@H](Cn1cnc2c(N)nc(N)nc21)OCP(=O)(O)O,-,>300 µM
CC1=CCCC2C1(C)CCC(C)[C@@]2(C)CC1=CC(=O)C(NC(C)C(=O)O)=CC1=O,-,5.7 µM
O=C(CC1(O)C(=O)Nc2ccccc21)c1ccccc1,MTT,>400 µM
Cc1cn([C@H]2C[C@H](N=[N+]=[N-])[C@@H](CO)O2)c(=O)[nH]c1=O,-,>1000 µM
O=C(CC1(O)C(=O)Nc2ccccc21)c1cccc(Br)c1,MTT,>400 µM
Cc1cn([C@H]2C[C@H](N=[N+]=[N-])[C@@H](CO)O2)c(=O)nc1NNc1ccccc1,-,150 µM
C[C@@H]1O[C@@H](Oc2c(-c3cc(O)c(O)c(O)c3)oc3cc(O)cc(O)c3c2=O)[C@H](O)[C@H](O)[C@H]1O,-,>200 µg/mL
Nc1ncnc2c1ncn2[C@H]1CC[C@@H](CO)O1,-,>250 µM
COc1ccc2oc3ccc([N+](=O)[O-])cc3c2c1,-,60.5 µg/mL
Cc1cccc(S(=O)(=O)c2c(C(=O)NNCCO)[nH]c3ccc(Cl)cc23)c1,MTT,>100 µM
Nc1nc(Cl)nc2c1ncn2[C@H]1C=C[C@@H](CO)O1,-,<20 µM
C[C@@H](Cn1cnc2c(N)nc(N)nc21)OCP(=O)(O)O,-,>300 µM

Neighbouring rows are from separate reports. CCn: concentration that lowers growth or viability of the cells by n%.